Measured values from several laboratories, pooled; numbers as filed in NIAID ChemDB.

Common to all: growth or infection tests; organism: HIV-1; read-out: EC50

Neighbouring rows are from separate reports.

SMILES | setting | method | mutations | strain | cell line | value
CC(c1nc2ccc(C3=NCCN3)cc2[nH]1)c1nc2ccc(C3=NCCN3)cc2[nH]1 | - | cytopathic effect / propidium iodide | - | IIIB | MT-4 | 37.9 µM
S=c1[nH]c(=S)c2nc(-c3ccccn3)c(-c3ccccn3)nc2[nH]1 | - | cytopathic effect / MTT / absorbance | - | IIIB | MT-4 | >93.23 µM
Cc1cc[nH]c(=O)c1Cc1ccc2c(c1)NC(=O)N[C@]2(C#CC1CC1)C(F)(F)F | pseudotyped | GFP | - | - | PBMC | 0.132 µM
Nc1ccn([C@H]2CO[C@H](CO)O2)c(=O)n1 | - | cytopathic effect | - | - | MT-4 | >465 µM
COc1ccc(N2CCN(NC(=O)c3ccc(C(F)(F)F)nc3Nc3cc(Cl)ccc3C)CC2)cc1 | - | luciferase | - | IIIB | TZM-bl | >10 µM
CC[C@]1(CO)O[C@@H](n2cnc3c(N)ncnc32)C[C@@H]1O | - | luciferase | SSGR+T215Y (delta)Env | - | HOS | >0.7 µM
CC(C)C1=C2[C@H]3CC[C@@H]4[C@@]5(C)CC[C@H](OC(=O)[C@H]6C[C@@H](C(=O)O)C6(C)C)C(C)(C)[C@@H]5CC[C@@]4(C)[C@]3(C)CC[C@@]2([C@@H](O)CNC(C)(C)c2ccccc2)CC1=O | - | p24 / ELISA | - | 92HT599 | MT-2 | <1 µM
COC(=O)c1cccc(Cn2ccc3ccc(-c4ccc5ccn(Cc6cccc(C(=O)Oc7c(F)c(F)c(S(=O)(=O)[O-])c(F)c7F)c6)c5c4)cc32)c1.[Na+] | pseudotyped | luciferase / cell fusion | - | HXB2 | TZM-bl | 0.06 µM
Cn1cc(C(=O)O)c(=O)c2cc(F)c(N3CC=C(c4ccccc4)CC3)c(C(F)(F)F)c21 | - | ELISA | - | - | PBMC | 0.095 µM
CCCCCCCCCCCCCC(=O)OC[C@H]1O[C@@H](n2cc(C)c(=O)[nH]c2=S)C[C@@H]1F | - | syncytia | - | - | MT-2 | ~0.05 µM
O=c1ccn([C@H]2CS[C@@H](CO)O2)c(=O)[nH]1 | - | cytopathic effect | - | - | MT-4 | >435 µM
Cc1cccnc1C1=C[C@H](O)[C@@H](CO)O1 | - | - | - | - | MT-4 | 38 µg/mL
C/C=C/CSc1cc(NC(=S)c2ccsc2C)ccc1Cl | - | p24 | RT-L100I | NL4-3 | CEM + CEM-SS | 2.2 µM
COCCCn1c(=O)nc(-c2ccc(N3CCN(C)CC3)nc2)c2oc3ccc(-c4cnn(C)c4)cc3c21 | - | p24 / ELISA | - | - | C8166 | 0.0015 µM
CC(C)C1=C2[C@H]3CC[C@@H]4[C@@]5(C)CC[C@H](OC(=O)[C@H]6C[C@@H](C(=O)O)C6(C)C)C(C)(C)[C@@H]5CC[C@@]4(C)[C@]3(C)CC[C@@]2([C@@H](O)CNC(=O)C(C)(C)NC(=O)c2ccncc2)CC1=O | - | p24 / ELISA | - | 92HT599 | MT-2 | <1 µM
C=C1CN(S(=O)(=O)c2ccc(COCCCC)cc2)CCCN(Cc2ccccc2)CCCN(S(=O)(=O)c2ccc(COCCCC)cc2)C1 | - | p24 | - | NL4-3 | MT-4 | >15 µM
[N-]=[N+]=N[C@H]1[C@@H](F)[C@H](n2ccc(=O)[nH]c2=O)O[C@@H]1CO | - | - | - | IIIB | MT-4 | 8.4 µM
C=C(C)[C@@H]1CC[C@]2(C(=O)NCCCCCCCC(=O)N[C@@H](CC(C)C)[C@@H](O)CC(=O)O)CC[C@]3(C)[C@H](CC[C@@H]4[C@@]5(C)CC[C@H](O)C(C)(C)[C@@H]5CC[C@]43C)[C@@H]12 | - | cytopathic effect / MTT | - | MN | MT-4 | 0.04 µM
Nc1ccn([C@@H]2CO[C@@H](CO)O2)c(=O)n1 | - | cytopathic effect | - | - | MT-4 | >437 µM
C=C(C)COCn1c(Cc2ccccc2)c(CF)c(=O)[nH]c1=O | - | MTT | K103N + Y181C | IIIB | MT-4 | >20 µM
NC(=O)c1cnn([C@@H]2C=C(CO)[C@@H](O)[C@H]2O)c1 | - | - | - | LAI | PBMC | 24 µM
Cc1cccc(C2=C[C@H](O)[C@@H](CO)O2)n1 | - | - | - | - | MT-4 | 7 µg/mL
C=C(C)[C@@H]1CC[C@]2(C(=O)NCCCCCCCC(=O)N[C@@H](CC(C)C)[C@@H](O)CC(=O)O)CC[C@]3(C)[C@H](CC[C@@H]4[C@@]5(C)CC[C@H](O)C(C)(C)[C@@H]5CC[C@]43C)[C@@H]12 | - | luciferase / cell fusion | - | NL4-3 | MT-4 | 0.053 µM
O=c1ccn([C@H]2CO[C@@H](CO)S2)c(=O)[nH]1 | - | - | - | - | MT-4 | >100 µg/mL
Cc1ncn(Nc2ccccc2)c1C | - | cytopathic effect / MTT | - | IIIB | MT-4 | >351 µM
Nc1ncnc2c1ncn2[C@H]1CO[C@@H](CO)S1 | - | cytopathic effect | - | - | MT-4 | >395 µM
Cc1cc2nc3cn2c(c1[C@H](OC(C)(C)C)C(=O)O)N1CCC(C)(CC1)OC/C=C\C[C@@H](C)Oc1cc(F)cc(F)c1-c1cccc-3c1 | - | luciferase | - | - | MT-2 | 0.002 µM
Clc1nccc2nc(-c3ccccn3)c(-c3ccccn3)nc12 | - | cytopathic effect / MTT / absorbance | - | IIIB | MT-4 | >67.36 µM
CC(C)(C)OC(=O)N[C@H](CN[C@@H](CC1CC1)C(=O)N[C@@H](CCC(=O)O)C(=O)NCCCc1ccccc1)Cc1ccccc1 | - | syncytia | - | IIIB | C8166 | <20 µg/mL
CSc1nc(N)cc(=O)n1CCOCP(=O)(O)O | - | - | - | IIIB | CEM + CEM-SS | >100 µg/mL
Cc1cccc(-c2ccc(CO)o2)n1 | - | - | - | - | MT-4 | >100 µg/mL
COC(=O)c1[nH]c(=S)n(Nc2cccc(Cl)c2)c1C | - | cytopathic effect / MTT | - | IIIB | MT-4 | >48.8 µM
Nc1nc(=O)n([C@H]2CC[C@@H](CO)O2)cc1F | - | cytopathic effect / MTT | - | RF | MT-4 | 0.2 µM
[N-]=[N+]=N[C@H]1[C@@H](F)[C@H](n2ccc(N)nc2=O)O[C@@H]1CO | - | - | - | IIIB | MT-4 | >500 µM
Nc1ccn([C@@H]2CO[C@@H](CO)S2)c(=O)n1 | - | - | - | - | MT-4 | >100 µg/mL
CC(C)C1=C2[C@H]3CC[C@@H]4[C@@]5(C)CC[C@H](OC(=O)[C@H]6C[C@@H](C(=O)O)C6(C)C)C(C)(C)[C@@H]5CC[C@@]4(C)[C@]3(C)CC[C@@]2([C@@H](O)CNCc2ccc(OCCN3CCOCC3)cc2)CC1=O | - | p24 / ELISA | - | 92HT599 | MT-2 | <1 µM
C=C(C)[C@@]12OC3(C)O[C@@H]1[C@@H]1[C@H](OC(=O)c4ccccc4)C4(C)O[C@@]5([C@@H]4OC(C)=O)[C@@H](OC(=O)c4ccccc4)[C@@H](C)C[C@H]5[C@@]1(O)[C@H](C)[C@@H]2O3 | - | syncytia | - | - | C8166 | 44.3 µg/mL
Nc1nc2c(ncn2[C@H]2C[C@H](O)[C@@H](CO)O2)c(=O)o1 | - | RT activity | - | IIIB | H9 | >30 µg/mL
Cc1cc2nc3cn2c(c1[C@H](OC(C)(C)C)C(=O)O)N1CCC(C)(CC1)OCCCC[C@@H](C)Oc1cc(F)cc(F)c1-c1cccc-3c1 | - | luciferase | - | - | MT-2 | 0.004 µM
Nc1nc2c(ncn2[C@H]2CS[C@@H](CO)O2)c(=O)[nH]1 | - | cytopathic effect | - | - | MT-4 | 63.2 µM
Cc1cn([C@H]2C[C@H](F)[C@@H](CO)O2)c(=S)[nH]c1=O | - | syncytia | - | - | MT-2 | 0.5 µM
C=C1CN(S(=O)(=O)c2ccc(C)cc2)CCCN(C(=O)OCC)CCCN(S(=O)(=O)c2ccc(C)cc2)C1 | - | p24 | - | NL4-3 | MT-4 | 27.15 µM
CC(C)C1=C2[C@H]3CC[C@@H]4[C@@]5(C)CC[C@H](OC(=O)[C@H]6C[C@@H](C(=O)O)C6(C)C)C(C)(C)[C@@H]5CC[C@@]4(C)[C@]3(C)CC[C@@]2(CCNC(=O)[C@H]2CCCCN2)CC1=O | - | p24 / ELISA | - | 92HT599 | MT-2 | <1 µM
Nc1ncnc2c1ncn2[C@@H]1CO[C@H](CO)S1 | - | - | - | - | MT-4 | 50 µg/mL
NC(=NC1CCCC1)c1ccc2nc(Cc3nc4ccc(C(N)=NC5CCCC5)cc4[nH]3)[nH]c2c1 | - | cytopathic effect / propidium iodide | - | IIIB | MT-4 | 3.2 µM
N#Cc1cn([C@H]2C[C@H](F)[C@@H](CO)O2)c(=O)[nH]c1=O | - | - | - | - | MT-4 | 50 µM
NC(=NC1CC1)c1ccc2nc(Cc3nc4ccc(C(N)=NC5CC5)cc4[nH]3)[nH]c2c1 | - | cytopathic effect / propidium iodide | - | IIIB | MT-4 | 20.6 µM
Cc1cn([C@H]2C[C@H](N=[N+]=[N-])[C@@H](CO)O2)c(=O)[nH]c1=O | - | syncytia | - | - | C8166 | 0.004 µg/mL
OC[C@H]1OC(c2ccccn2)=C[C@@H]1O | - | - | - | - | MT-4 | 15 µg/mL
Nc1nc2c(ncn2[C@@H]2O[C@H](COP(=O)(O)O)[C@@H](O)[C@H]2O)c(=O)o1 | - | RT activity | - | IIIB | H9 | >30 µg/mL
NC1N=CNc2nc(-c3ccccn3)c(-c3ccccn3)nc21 | - | cytopathic effect / MTT / absorbance | - | IIIB | MT-4 | >12.1 µM
CC(C)C1=C2[C@H]3CC[C@@H]4[C@@]5(C)CC[C@H](OC(=O)[C@H]6C[C@@H](C(=O)O)C6(C)C)C(C)(C)[C@@H]5CC[C@@]4(C)[C@]3(C)CC[C@@]2([C@@H](O)CNC(=O)c2ccc(C(F)(F)F)cc2)CC1=O | - | p24 / ELISA | - | 92HT599 | MT-2 | <1 µM
CCc1c(Cc2cc(C)cc(C)c2)n(COCCO)c(=O)[nH]c1=O | - | MTT | EFV:K103R+V179D+P225H | IIIB | MT-4 | 22 µM
N[C@H]1CONC1=O | - | antigen | - | N1T | CEM | <5 µg/mL
Nc1nc(NC2CC2)c2ncn([C@H]3C=C[C@@H](CO)C3)c2n1 | - | cytopathic effect / XTT | - | HXB2-D WT | MT-2 | 0.4 µM
Cc1ccc(-c2nc3ccc(CNC(=O)C[C@@]45CC[C@]6(C)[C@H](CC[C@@H]7[C@@]8(C)CC[C@H](OC(=O)[C@H]9C[C@@H](C(=O)O)C9(C)C)C(C)(C)[C@@H]8CC[C@]76C)C4=C(C(C)C)C(=O)C5)cc3[nH]2)cn1 | - | p24 / ELISA | - | 92HT599 | MT-2 | <1 µM
Nc1ccn([C@@H]2O[C@H](CO)C[C@@H]2F)c(=O)n1 | - | - | - | IIIB | MT-4 | 9.8 µM
Nc1ccn([C@H]2CO[C@@H](CO)S2)c(=O)n1 | - | - | - | - | MT-4 | >10 µg/mL
c1cc2nc(Cc3nc4ccc(C5=NCCCC5)cc4[nH]3)[nH]c2cc1C1=NCCCC1 | - | cytopathic effect / propidium iodide | - | IIIB | MT-4 | 90.8 µM
O=c1[nH]cnc2nc(-c3ccccn3)c(-c3ccccn3)nc12 | - | cytopathic effect / MTT / absorbance | - | IIIB | MT-4 | >50.52 µM
Cc1ccc(S(=O)(=O)N2CCCN(Cc3ccccc3)CCCN(S(=O)(=O)c3ccc(C)cc3)CC(CO)C2)cc1 | - | p24 | - | NL4-3 | MT-4 | 7.31 µM
Cc1cccc(Nn2c(-c3ccccc3)c(C(C)C)[nH]c2=S)c1 | - | cytopathic effect / MTT | RT-K103N Y181C | SO561945 (RT K103N Y181C) | MT-4 | >42.63 µM

Repeating the final 4 entries:

c1cc2nc(Cc3nc4ccc(C5=NCCCC5)cc4[nH]3)[nH]c2cc1C1=NCCCC1 ; method: cytopathic effect / propidium iodide ; strain: IIIB ; cell line: MT-4 ; value: 90.8 µM
O=c1[nH]cnc2nc(-c3ccccn3)c(-c3ccccn3)nc12 ; method: cytopathic effect / MTT / absorbance ; strain: IIIB ; cell line: MT-4 ; value: >50.52 µM
Cc1ccc(S(=O)(=O)N2CCCN(Cc3ccccc3)CCCN(S(=O)(=O)c3ccc(C)cc3)CC(CO)C2)cc1 ; method: p24 ; strain: NL4-3 ; cell line: MT-4 ; value: 7.31 µM
Cc1cccc(Nn2c(-c3ccccc3)c(C(C)C)[nH]c2=S)c1 ; method: cytopathic effect / MTT ; mutations: RT-K103N Y181C ; strain: SO561945 (RT K103N Y181C) ; cell line: MT-4 ; value: >42.63 µM

ECn is the concentration giving n% inhibition of infection, replication or growth. An empty or dashed field is not shown.